Literature values in patent US7144731B2, “SCF antibody compositions and methods of using the same” (Amgen Inc., priority 1989, dated 2006).

System: HIV
Conditions: other studies; cited from earlier work

B1: IL-3: human interleukin-3 (protein, UniProt P08700 20-152, looked up)
Interleukin-3: APMTQTTPLKTSWVNCSNMIDEIITHLKQPPLPLLDFNNLNGEDQDILMENNLRRPNLEAFNRAVKSLQNASAIESILKNLLPCLPLATAAPTRHPIHIKDGDWNEFRRKLTFYLKTLENAQAQQTTLSLAIF
replication of HIV in partially purified primary peripheral blood monocytes: significantly increase replication of HIV
